Earlier results as cited in patent US11517581B2, “Zika virus protease inhibitors and methods of use thereof” (priority 2017, dated 2022).

System: ZIKV
Conditions: cited from earlier work

Compound | Cmax:IC50 ratio (500 mg intravenous dose) | Cmax:IC50 ratio (oral, literature drugs)
CC[C@H]1OC(=O)[C@H](C)[C@@H](O[C@H]2C[C@@](C)(OC)[C@@H](O)[C@H](C)O2)[C@H](C)[C@@H](O[C@@H]2O[C@H](C)C[C@H](N(C)C)[C@H]2O)[C@](C)(O)C[C@@H](C)CN(C)[C@H](C)[C@@H](O)[C@]1(C)O [azithromycin] | ≤ 2.31 | 0.26
CCN(CC)CCCC(C)Nc1ccnc2cc(Cl)ccc12 (stereo not shown) [chloroquine] | – | 0.12
OC(c1cc(C(F)(F)F)nc2c(C(F)(F)F)cccc12)C1CCCCN1 (stereo not shown) [mefloquine] | – | 0.58

Read-outs that look alike come from different tables or passages of the source.
